Construct, isoform or probe ends are uncertain for at least one entry.

This data set concerns the target Concanavalin A (UniProt P02866). Description: flow cytometry. The settings on record: 5' 20 nt DNA primer, remainder FANA (2'-deoxy-2'-fluoroarabino), purified native protein, protein details: Alexa Fluor 647 labeled, label: 5'-BiotinTEG, synthetic backbone.

With “ATTTTATATTCGGGTACGGGACAAGGATTCGGGATAGTTCTACGATGGATTGGGGTCGTACTTGTGCAAACGGCTATAGG [can-2 Man-cmFANA]”, the binding result (every U in FANA region is C8-alkyne-FANA U click-conjugated to 2-azidoethyl-alpha-D-mannose (15-16 conjugations)) is listed as “binds”.

As to “ATTTTATATTCGGGTACGGGATTTATTTATGACCAGAATGATATTTCTGAGCATATCACTCTTGTGCAAACGGCTATAGG [can-4 Man-cmFANA]”, under “every U in FANA region is C8-alkyne-FANA U click-conjugated to 2-azidoethyl-alpha-D-mannose (21 conjugations)”, the binding result is listed as “binds”. Take “ATTTTATATTCGGGTACGGGCGTGTGCCTTAGTAATATGGTTTCAACACGTGCCTTTGACCTTGTGCAAACGGCTATAGG [can-3 Man-cmFANA]”: the binding result (every U in FANA region is C8-alkyne-FANA U click-conjugated to 2-azidoethyl-alpha-D-mannose) is “binds”.

Values taken from patent US20240368655.
